This note sets out measurements from patent publication EP4670733A1, “METHODS FOR PREPARING VIRAL PROTEINS AND USES THEREOF” (priority 2024, dated 2025).

In the data set the test system is B/Phuket/3073/2013 virus strain. The experiment in a line: Morphological characterization by TEM. The arrangement: species or system influenza virus.

As for Triton X-100 [reference compound], the “Morphological characterization (TEM)” value is “Splitting observed”. With C11-15-secondary alcohol ethoxylates the entry was “Splitting observed”.
